Measured values from several laboratories, pooled; numbers as filed in NIAID ChemDB.

All rows: host cell toxicity; cell line: A549; endpoint: CC50

CCn: concentration that lowers growth or viability of the cells by n%. Conditions beyond the fields shown may differ between rows. An empty or dashed field is not shown.

smiles,method,result
Cc1c(C(F)(F)F)cc2nc(C(=O)N[C@@H](CO)C(=O)N3CCCC3)sc2c1[N+](=O)[O-],resazurin / fluorescence,>100 µM
CCOC(=O)c1cc(O)c(O)c(O)c1,MTS,>200 µM
CC1(C)CCC[C@]2(C)[C@H]3C[C@@H](C4=CCOC4=O)CC3=CC[C@@H]12,absorbance,34.3 µM
Br.CN1C=CN(c2cccc(N3C=CN(C)C3)n2)C1,sulforhodamine / absorbance,>30 µM
CCCCSc1n[nH]c(-c2cccc([N+](=O)[O-])c2C)n1,-,>100 µg/mL
Cc1cc(C=O)cc(C)c1Oc1cc(Nc2ccc(C#N)cc2)c2ccccc2n1,MTT,≥50 µg/mL
CCC(C)Sc1n[nH]c(-c2ccc(C)cc2)n1,MTT,>100 µg/mL
CCO[C@H]1c2cc(O)c(OC)c(OC)c2-c2c(cc(O)c(OC)c2OC)C[C@H](C)[C@@H]1C,MTT,>10 µg/mL
COc1cc([C@@H]2c3cc4c(cc3[C@@H](O[C@@H]3O[C@@H]5CO[C@@H](C)O[C@H]5[C@H](O)[C@H]3O)[C@H]3COC(=O)[C@H]23)OCO4)cc(OC)c1O,resazurin,0.7 µg/mL
Cc1cc(C=O)cc(C)c1Oc1cc(Nc2ccc(C#N)cc2)nc2ccccc12,MTT,51.2 µM
CC(C)CS[C@@H]1C=C[C@H](n2cnc3c(N)ncnc32)C1,-,50 µg/mL
COc1cc(O)c2c(c1O)C(=O)c1cc(C)ncc1C2=O,MTT,86.2 µg/mL
NC(=NC1CC1)c1ccc(N2CCN(c3ccc(C(N)=NC4CC4)cc3)CC2)cc1,-,>130 µg/mL
C=C(C)[C@@H]1CCC2(C(=O)OC)CC[C@]3(C)C(CCC4[C@@](C)(CC#N)C(C(C)(C)C(=O)Nc5nccs5)CC[C@]43C)C12,MTT,>100 µM
Fc1ccc(-c2n[nH]c(=S)s2)cc1,MTT,>100 µg/mL
CCC(C)CN=C(N)c1ccc(N2CCN(c3ccc(C(N)=NCC(C)CC)cc3)CC2)cc1.Cl.Cl,-,93.9 µg/mL
COCCN1CCN(C(=O)c2nc3cc(C(F)(F)F)c(C)c([N+](=O)[O-])c3s2)CC1,resazurin / fluorescence,>100 µM
CCCCCCCCCCCCN=C(N)c1ccc(N2CCN(c3ccc(C(N)=NCCCCCCCCCCCC)cc3)CC2)cc1,-,14.3 µg/mL
C#CCSc1n[nH]c(-c2ccco2)n1,-,>100 µg/mL
CCCCCCCN=C(N)c1ccc(N2CCN(c3ccc(C(N)=NCCCCCCC)cc3)CC2)cc1,-,>3.4 µg/mL
Cc1c(Cl)cccc1-c1nc(=S)[nH][nH]1,MTT,>100 µg/mL
CC[C@H](C)C(=O)c1c(O)cc(O)cc1OC/C=C(\C)CCC=C(C)C,sulforhodamine,10.5 µM
C[C@H]1COC2(CCN(c3nc(=O)c4cc(C(F)(F)F)cc([N+](=O)[O-])c4s3)CC2)O1,resazurin / fluorescence,46 µM
CN=C(N)c1ccc(N2CCN(c3ccc(C(N)=NC)cc3)CC2)cc1,-,>100 µg/mL
C=CCSc1n[nH]c(-c2cccc(C(F)(F)F)c2)n1,-,>100 µg/mL
COc1cc(O)c2c(c1)C(=O)C(CC(C)=O)=C(C)C2=O,MTT,76.5 µg/mL
N=C(N)c1ccc(NC(=O)CCCCC(=O)Nc2ccc(C(=N)N)cc2)cc1,-,500 µg/mL
COc1ccc(-c2nc3ccccc3n2C(=O)/C=C/c2ccccc2)cc1,MTT / absorbance,30 µg/mL
COc1cc2c(c(O)c1OC)-c1c(cc(OC(C)=O)c(OC)c1O)C[C@@H](C)[C@@H](C)C2,MTT,>10 µg/mL
O=[N+]([O-])c1ccc(-c2nc(=S)[nH][nH]2)cc1C(F)(F)F,MTT,52.72 µg/mL
O=C(O)c1ccc(N2C(=O)c3cccc([N+](=O)[O-])c3C2=O)cc1O,visual reading / absorbance,100 µg/mL
CCc1ccc2[nH]c3cc(C#N)c(=O)oc3c2c1,visual reading / absorbance,32 µg/mL
FC(F)(F)c1ccc(-c2nc(=S)[nH][nH]2)cc1,MTT,81.35 µg/mL
CCCCCC(=O)Nc1nc(=O)n([C@@H]2C[C@H](CO)[C@@H](O)C2)cc1COC,-,>2717 µM
C[C@@H]1C[C@@H](O)c2c(O[C@H]3O[C@H](CO)[C@@H](O)[C@H]3O)cccc2O1,MTT,>40 µg/mL
CCSc1n[nH]c(-c2ccc(Cl)cc2C)n1,-,>100 µg/mL
NNC(=O)c1ccncc1,MTT,>100 µg/mL
C=C(C)[C@@H]1CC(=O)C[C@H]2C(=O)[C@@H]3[C@@H]4C(=C[C@@H]12)C(=O)O[C@@H]4C[C@]3(C)O,MTT,20 µM
N#Cc1cc2[nH]c3ccc(O)cc3c2oc1=O,visual reading / absorbance,32 µg/mL

Again, the opening 3 rows:

smiles,method,result
Cc1c(C(F)(F)F)cc2nc(C(=O)N[C@@H](CO)C(=O)N3CCCC3)sc2c1[N+](=O)[O-],resazurin / fluorescence,>100 µM
CCOC(=O)c1cc(O)c(O)c(O)c1,MTS,>200 µM
CC1(C)CCC[C@]2(C)[C@H]3C[C@@H](C4=CCOC4=O)CC3=CC[C@@H]12,absorbance,34.3 µM